Pooled drug test results. Numbers come from NIAID ChemDB, via PubChem.

Common to all: whole-cell or culture tests; agent: HIV-1

Blank or dashed fields: not listed here.

compound | strain | endpoint | read by | mutations | cells | setting | result
Nc1nc(=O)n([C@@H]2C[C@H](O)[C@@H](CO)O2)cc1[N+](=O)[O-] |  | EC50 |  |  | MT-4 |  | >100 µM
N[C@H]1CONC1=O | N1T | EC50 | p24 |  | CEM |  | ~2.5 µg/mL
C=C(C)[C@@H]1CC[C@]2(C(=O)O)CC[C@]3(C)[C@H](CC[C@@H]4[C@@]5(C)CC[C@H](OC(=O)C(C)(C)CC(=O)O)C(C)(C)[C@@H]5CC[C@]43C)[C@@H]12 | NL4-3 | EC50 | p24 |  | MT-4 |  | 0.45 µM
CC(C)=CCC/C(C)=C/CC/C(C)=C/CC/C(C)=C/Cc1cc(O)cc2c1OC(=O)C2=C(C)C | IIIB | EC50 | syncytia |  | C8166 |  | 1.62 µM
C=C(C)[C@@H]1CC[C@]2(C(=O)NCCCCCCCC(=O)Nc3ccc(C(=O)O)cc3)CC[C@]3(C)[C@H](CC[C@@H]4[C@@]5(C)CC[C@H](OC(=O)CC(C)(C)C(=O)O)C(C)(C)[C@@H]5CC[C@]43C)[C@@H]12 | NL4-3 | EC50 | p24 |  | MT-4 |  | 0.007 µM
CC1(C)C=C2[C@H]3CC[C@@H]4[C@@]5(C)CCC(=O)C(C)(C)[C@@H]5CC[C@@]4(C)[C@]3(C)CC[C@@]2(C(=O)O)CC1 | IIIB | EC50 | syncytia |  | C8166 |  | 7.49 µM
Nc1nc(=O)n(C2CC[C@@H](CO)O2)cc1[N+](=O)[O-] |  | EC50 |  |  | MT-4 |  | >100 µM
C=C(C)[C@@H]1CC[C@]2(C(=O)O)CC[C@]3(C)[C@H](CC[C@@H]4[C@@]5(C)CC[C@H](OC(=O)CC(C)(C)C(=O)O)C(C)(C)[C@@H]5CC[C@]43C)[C@@H]12 | NL4-3 | EC50 | p24 |  | MT-4 |  | 0.075 µM
Nc1nc2c(ncn2COCCO)c(=O)[nH]1 | IIIB | EC50 | cytopathic effect / MTT |  | MT-4 |  | >555 µM
CNC(=O)c1ccccc1CNC(=O)c1nc(N2CCCCS2(=O)=O)c2cccnc2c1O |  | EC50 | p24 |  | MT-4 |  | <5 µM
CN(C)C(=O)C(=O)NC12CCC(CC1)Cn1c2nc(C(=O)NCc2cccnc2)c(O)c1=O | NL4-3 | EC50 | luciferase | (delta)nef | MT-2 | pseudotyped | <0.01 µM
CC(C)[C@H](NC(=O)OCc1ccccc1)C(=O)N[C@@H](Cc1ccccc1)[C@@H](O)[C@@H](NCc1ccccc1)C(=O)N[C@H](C(=O)NCc1nc2ccccc2[nH]1)C(C)C | IIIB | EC50 | MTT / p24 |  | HuT-78 + HUT 78 |  | 0.0647 µM
Cc1cc(C)c(Nc2ccnc(Nc3ccc(C#N)cc3)n2)c(C)c1 |  | EC50 | luciferase |  | TZM-bl |  | 0.0016 µM
CN(C)C(=O)c1cc(F)ccc1CNC(=O)c1nc(N2CCCCS2(=O)=O)c2cccnc2c1O |  | EC95 | p24 |  | MT-4 |  | <5 µM
O=C(NC12CCC(CC1)Cn1c2nc(C(=O)NCc2ccc(F)cc2)c(O)c1=O)c1ccon1 | NL4-3 | EC50 | luciferase | (delta)nef | MT-2 | pseudotyped | <0.01 µM
CC(=O)N1CCC(C(=O)N(CCCN2CCC(Cc3ccc(C(N)=O)cc3)CC2)c2ccc(C)c(Cl)c2)CC1 | HTN Clinical isolates | EC50 | p24 |  | PBMC |  | 0.0009 µM
C=C[C@H]1[C@H](NC(C)=O)[C@H]1C(=O)NC12CCC(CC1)Cn1c2nc(C(=O)NCc2ccc(F)c(C)c2)c(O)c1=O | NL4-3 | EC50 | luciferase | (delta)nef | MT-2 | pseudotyped | <0.01 µM
CC(C)=CCC/C(C)=C/CC/C(C)=C/CC/C(C)=C/Cc1cc(O)cc2c1OC(=O)C2 | IIIB | EC50 | syncytia |  | C8166 |  | 3.7 µM
C=C(C)[C@@H]1CC[C@]2(C(=O)N[C@@H](CC(C)C)C(=O)O)CC[C@]3(C)[C@H](CC[C@@H]4[C@@]5(C)CC[C@H](OC(=O)CC(C)(C)C(=O)O)C(C)(C)[C@@H]5CC[C@]43C)[C@@H]12 | NL4-3 | EC50 | p24 |  | MT-4 |  | 0.015 µM
Cc1cn([C@H]2C=C[C@@H](CO)O2)c(=O)[nH]c1=O |  | EC50 |  |  | CEM + CEM-SS |  | 0.059 µM
C=C(C)[C@@H]1CC[C@]2(C(=O)NCCCCCCCC(=O)N[C@@H](CC(C)C)[C@H](O)CC(=O)O)CC[C@]3(C)[C@H](CC[C@@H]4[C@@]5(C)CC[C@H](OC(=O)CC(C)(C)C(=O)O)C(C)(C)[C@@H]5CC[C@]43C)[C@@H]12 | NL4-3 | EC50 | p24 |  | MT-4 |  | 0.096 µM
CC(C)[C@H](NC(=O)OCc1ccccc1)C(=O)N[C@@H](Cc1ccccc1)[C@@H](O)[C@@H](NCc1ccccc1)C(=O)N[C@H](C(=O)NCc1ccccc1)C(C)C | RF | EC50 | p24 |  | MT-4 |  | 1.005 µM
Cc1nn(C(C)C)c(Sc2cc(Cl)cc(Cl)c2)c1COCc1ccncc1 | HXB2 | EC50 | cytopathic effect / MTT |  | MT-4 + MT4 |  | 0.004 µM
Cc1cc(C#CCCO)cc(C)c1Oc1ccnc(Nc2ccc(C#N)cc2)n1 | IIIB | EC50 | MTT | RES056 | MT-4 |  | >3.55 µM
CNC(=O)c1cc(F)ccc1CNC(=O)c1nc(N(C)S(C)(=O)=O)c2cccnc2c1O |  | EC95 | p24 |  | MT-4 |  | <5 µM
CC(C)[C@H](NC(=O)CCc1nc2ccccc2[nH]1)C(=O)N[C@@H](Cc1ccccc1)[C@@H](O)[C@@H](NCc1ccccc1)C(=O)N[C@H](C(=O)NCc1ccccc1)C(C)C | IIIB | EC50 | MTT / p24 |  | HuT-78 + HUT 78 |  | 0.092 µM
Cc1ccc(C)n1-c1ccc(C(=O)O)c(O)c1 | 93BR020 X4R5 CLADE F | EC50 | luciferase / cell fusion |  | PBMC/5.25M7 |  | 7.04 µM
Nc1cn([C@@H]2CC[C@@H](CO)O2)c(=O)[nH]c1=O |  | EC50 |  |  | MT-4 |  | >100 µM
Cc1ccc(CNC(=O)c2nc3n(c(=O)c2O)CC2CCC3(NC(=O)C(=O)N(C)C)CC2)cc1 | NL4-3 | EC50 | luciferase | (delta)nef | MT-2 | pseudotyped | <0.01 µM
C=C(C)[C@@H]1CC[C@]2(C(=O)NCCCCCCCCCCC(=O)O)CC[C@]3(C)[C@H](CC[C@@H]4[C@@]5(C)CC[C@H](OC(=O)C(C)(C)CC(=O)O)C(C)(C)[C@@H]5CC[C@]43C)[C@@H]12 | NL4-3 | EC50 | p24 |  | MT-4 |  | 0.035 µM
Nc1cn([C@H]2CC[C@@H](CO)O2)c(=O)nc1N |  | EC50 |  |  | MT-4 |  | >100 µM
C=C(C)[C@@H]1CC[C@]2(C(=O)NCCCCCCCCCCC(=O)O)CC[C@]3(C)[C@H](CC[C@@H]4[C@@]5(C)CC[C@H](OC(=O)CC(C)(C)C(=O)O)C(C)(C)[C@@H]5CC[C@]43C)[C@@H]12 | NL4-3 | EC50 | p24 |  | MT-4 |  | 0.012 µM
CC(C)[C@H](NC(=O)OCc1ccccc1)C(=O)N[C@@H](Cc1ccccc1)[C@@H](O)[C@@H](NCc1ccc(Br)cc1)C(=O)N[C@H](C(=O)NCc1nc2ccccc2[nH]1)C(C)C | IIIB | EC50 | MTT / p24 |  | HuT-78 + HUT 78 |  | 0.025 µM

Repeating the final 3 entries:

compound,strain,endpoint,read by,mutations,cells,setting,result
Nc1cn([C@H]2CC[C@@H](CO)O2)c(=O)nc1N,,EC50,,,MT-4,,>100 µM
C=C(C)[C@@H]1CC[C@]2(C(=O)NCCCCCCCCCCC(=O)O)CC[C@]3(C)[C@H](CC[C@@H]4[C@@]5(C)CC[C@H](OC(=O)CC(C)(C)C(=O)O)C(C)(C)[C@@H]5CC[C@]43C)[C@@H]12,NL4-3,EC50,p24,,MT-4,,0.012 µM
CC(C)[C@H](NC(=O)OCc1ccccc1)C(=O)N[C@@H](Cc1ccccc1)[C@@H](O)[C@@H](NCc1ccc(Br)cc1)C(=O)N[C@H](C(=O)NCc1nc2ccccc2[nH]1)C(C)C,IIIB,EC50,MTT / p24,,HuT-78 + HUT 78,,0.025 µM

Lines come from different laboratories, so protocols vary. ECn is the concentration giving n% inhibition of infection, replication or growth.